Results of unrelated studies side by side (data: NIAID ChemDB).

All rows: cytotoxicity tests; cell line: MT-4; endpoint: CC50

An empty or dashed field is not shown. CCn: concentration that lowers growth or viability of the cells by n%. Lines come from different laboratories, so protocols vary.

SMILES,method,result
CC(C)(C)OC(=O)N[C@@H](Cc1ccccc1)[C@@H](O)C[C@@H](Cc1ccc(OCP(=O)(O)O)cc1)C(=O)N[C@H]1c2ccccc2C[C@H]1O,-,>200 µM
Fc1c(F)c(CN2CCCNCCNCCCNCC2)c(F)c(F)c1CN1CCCNCCNCCCNCC1,-,>250 µg/mL
Cc1ccccc1Cn1cc(CSc2nc(Cc3cccc4ccccc34)c(C)c(=O)[nH]2)nn1,MTT,24.01 µM
c1cc(CN2CCCSCCSCCCNCC2)ccc1CN1CCCSCCSCCCNCC1,-,>6.8 µM
Cc1c(Cc2ccc(C#N)cc2)nc(SCc2ccc([N+](=O)[O-])cc2)[nH]c1=O,-,26.43 µM
CC(C)=CCc1c(-c2ccc(O)cc2O)oc2c3c(cc(O)c2c1=O)OC(c1c(O)cc(O)c2c(=O)c(CC=C(C)C)c(-c4ccc(O)cc4O)oc12)C1C3C=C(C)CC1(C)C,-,7.2 µg/mL
Cc1c(O)cccc1C(=O)N[C@@H](CSc1ccccc1)[C@H](O)CN1C[C@H]2CCCC[C@H]2C[C@H]1C(=O)NC(C)(C)C,MTT,6 µM
CCn1cc(C(=O)O)c(=O)c2cc3c(cc21)OCO3,-,>200 µg/mL
Cc1cc(C)cc(S(=O)(=O)c2c(C(=O)NCCc3ccccc3)[nH]c3ccc(Cl)cc23)c1,-,>1 µM
COC(=O)c1cc(CN2CCCNCCNCCCNCC2)ccc1CN1CCCNCCNCCCNCC1,-,>250 µg/mL
O=c1[nH]c(SCc2cn(Cc3ccccc3)nn2)nc(Cc2c(Cl)cccc2Cl)c1I,MTT,104 µM
CC(C)OP(=O)(COCC1(Cn2ccc(=O)[nH]c2=O)CC=CC1)OC(C)C,-,>100 µg/mL
Cc1cc(C)cc(S(=O)(=O)c2c(C(=O)NCc3ccccc3)[nH]c3ccc(Cl)cc23)c1,-,>1 µM
COC(=O)N[C@@H](Cc1c[nH]c2ccccc12)C(=O)NCCCC[C@@H](CO)N(CC(C)C)S(=O)(=O)c1ccc(N)cc1,MTT,40 µM
Cc1cc(C)cc(S(=O)(=O)c2c(C(=O)NCCOc3ccccc3)[nH]c3ccc(Cl)cc23)c1,-,>1 µM
CCc1c(C(C)c2c(F)cccc2F)nc(SCCOCc2ccc(OC)cc2)[nH]c1=O,-,>54.35 µM
Clc1cc(CN2CCCNCCNCCCNCC2)c(Cl)cc1CN1CCCNCCNCCCNCC1,-,>250 µg/mL
N#Cc1ccccc1Cn1cc(CSc2nc(Cc3cccc4ccccc34)cc(=O)[nH]2)nn1,MTT,105 µM
CC(C)OP(=O)(COCC1(Cn2cnc3c(N)ncnc32)CC=CC1)OC(C)C,-,>100 µg/mL
Cc1cn([C@H]2C[C@H](N=[N+]=[N-])[C@@H](CO)O2)c(=O)[nH]c1=O,-,>20 µM
CCc1c(Cc2c(Cl)cccc2Cl)nc(SCCc2ccc(OC)cc2)[nH]c1=O,-,>11.13 µM
Cc1cc(C)cc(S(=O)(=O)c2c(C(=O)NCc3ccccc3)[nH]c3ccc([N+](=O)[O-])cc23)c1,-,>1 µM
Cc1c(C)c2c(c3c1CC[n+]1ccc(/C=C4\Sc5ccccc5N4C)cc1-3)-c1cccc(/C=C3\Sc4ccccc4N3C)[n+]1CC2.O=S(=O)([O-])C(F)(F)F.O=S(=O)([O-])C(F)(F)F,absorbance,1.3 µM
Cc1c(Cc2c(F)cccc2F)nc(SCC(=O)c2ccc(Cl)cc2)[nH]c1=O,-,>59.52 µM
CCOC(=O)COc1ccc(C[C@H](C[C@H](O)[C@H](Cc2ccccc2)NC(=O)OC(C)(C)C)C(=O)N[C@H]2c3ccccc3C[C@H]2O)cc1,-,117 µM
c1ccc(-c2cc(CN3CCCNCCNCCCNCC3)ccc2CN2CCCNCCNCCCNCC2)cc1,-,>250 µg/mL
CO[C@@H]1[C@@H](OC(N)=O)[C@@H](O)[C@H](Oc2ccc3c(O)c(NC(=O)c4ccc(O)c(CC=C(C)C)c4)c(=O)oc3c2C)OC1(C)C,-,109 µg/mL
CC(C)=CCc1cc(-c2oc3cc(O)c(CC=C(C)C)c(O)c3c(=O)c2O)ccc1O,-,53 µg/mL
C1CNCCNCCCN(CCCN2CCCNCCNCCCNCC2)CCNC1,-,>250 µg/mL
Cc1c(Cc2c(F)cccc2F)nc(SC/C=C/c2ccc([N+](=O)[O-])cc2)[nH]c1=O,-,11.65 µM
c1cc(CN2CCCNCCNCCCNCC2)ccc1CN1CCCNCCNCCCNCC1,-,>250 µg/mL
Cc1c(Cc2c(Cl)cccc2Cl)nc(SCc2cn(Cc3ccc(S(N)(=O)=O)cc3)nn2)[nH]c1=O,MTT,95.49 µM
Cc1cn([C@H]2C[C@H](F)[C@@H](CO)O2)c(=O)[nH]c1=O,-,89 µM
COCOc1cc(O)c(C(=O)/C=C/c2ccc(OCOC)c(OCOC)c2)c(OCOC)c1,-,14 µg/mL
O=c1[nH]cnc2c1ncn2[C@H]1CC[C@@H](CO)O1,MTT,>212 µM
CC(C)(C)OC(=O)N[C@@H](Cc1ccccc1)[C@@H](O)C[C@@H](Cc1ccc(OCc2nnnn2Cc2ccccc2)cc1)C(=O)N[C@H]1c2ccccc2C[C@H]1O,-,>200 µM
Cc1c(Cc2c(F)cccc2F)nc(SCC(=O)c2ccc([N+](=O)[O-])cc2)[nH]c1=O,-,>58 µM
COc1c(CC=C(C)C)c(O)cc2c1[C@@H]1Oc3cc(O)c(CC=C(C)C)cc3[C@@H]1CO2,-,8 µg/mL
c1ccc2c(CN3CCCNCCNCCCNCC3)cc(CN3CCCNCCNCCCNCC3)cc2c1,-,>250 µg/mL
COc1ccc(Cn2cc(CSc3nc(Cc4c(Cl)cccc4Cl)c(I)c(=O)[nH]3)nn2)cc1,MTT,75.91 µM
c1ccc(-c2cc(CN3CCCNCCNCCCNCC3)cc(CN3CCCNCCNCCCNCC3)c2)cc1,-,>250 µg/mL
N#Cc1ccc(Cn2cc(CSc3nc(Cc4c(Cl)cccc4Cl)cc(=O)[nH]3)nn2)cc1,MTT,133 µM

A second listing of 4 rows from above:

SMILES,method,result
CC(C)(C)OC(=O)N[C@@H](Cc1ccccc1)[C@@H](O)C[C@@H](Cc1ccc(OCP(=O)(O)O)cc1)C(=O)N[C@H]1c2ccccc2C[C@H]1O,-,>200 µM
N#Cc1ccc(Cn2cc(CSc3nc(Cc4c(Cl)cccc4Cl)cc(=O)[nH]3)nn2)cc1,MTT,133 µM
N#Cc1ccccc1Cn1cc(CSc2nc(Cc3cccc4ccccc34)cc(=O)[nH]2)nn1,MTT,105 µM
c1ccc2c(CN3CCCNCCNCCCNCC3)cc(CN3CCCNCCNCCCNCC3)cc2c1,-,>250 µg/mL